This data set deals with HIV-1 in acutely infected human PBM cells. In words: Median effect and combination index analysis in acutely infected human PBM cells (Day 6). The format is cell-based. The text has this: Table 5 provides the median effective concentration and combinations index (C.I.) values for D-D4FC alone and in combination with AZT and D4T in acutely infected human PBM cells (Day6). Table 6 describes the effect of β-D and β-L-D4FC against HIV-1 and cloned viruses I human PBM cells.

Where [1] appears, read: slope ± S.E. of the median effect plot, human PBM cells, Day 6.

Read-outs that look alike come from different tables or passages of the source. No dose or concentration is given here for some results.

In the case of `Cc1cn([C@H]2C=C[C@@H](CO)O2)c(=O)[nH]c1=O` [D4T, 2',3'-dideoxy-2',3'-didehydrothymidine], the “m±SE” value under setting [1] amounted to 0.82±0.16.

With `Nc1nc(=O)n([C@H]2C=C[C@@H](CO)O2)cc1F` [D-D4FC, β-2',3'-didehydro-2',3'-dideoxy-5-fluorocytidine], the “m±SE” value under setting [1] was found to be 0.95±0.17.

In the case of `Cc1cn([C@H]2C[C@H](N=[N+]=[N-])[C@@H](CO)O2)c(=O)[nH]c1=O` [AZT, 3'-azido-3'-deoxythymidine], the “m±SE” value stood at 0.96±0.17.

These data come from patent EP1143976B9, “BETA-D-2', 3' -DIDEHYDRO-2', 3' -DIDEOXY-5-FLUO[…] USE IN THE TREATMENT OF HIV INFECTIONS” (priority 1999, dated 2000).
